What was measured:
[1] = test system: exotoxin production (Staphylococcus aureus, Streptococcus pyogenes, Streptococcus agalactiae, groups C, F, and G streptococci, and Clostridium perfringens); test: inhibition of exotoxin production in gram-positive bacteria; settings: independently from inhibition of growth; all gram-positive organisms tested
54 strains of S. aureus = test: bactericidal activity against 54 strains of S. aureus

glycerol monolaurate
exotoxin production [1]: inhibited exotoxin production | estimated chance of S. aureus developing resistance to GML (54 strains of S. aureus): < 1/10

Reference: patent US20180228758A1, “COMPOSITIONS AND METHODS TO TREAT INFECTED EAR CONDITIONS” (published 2018)
